Anti-infective test results gathered from many reports (values: NIAID ChemDB through PubChem).

All rows: growth or infection tests

Neighbouring rows are from separate reports. A number after MIC or MFC names an inhibition level or a share of isolates. Blank or dashed fields: not listed here. Percent inhibition refers to the dose given; in toxicity tests it is the harm to the cells.

compound,organism,strain,read by,conditions,read-out,dose,value
Clc1ccc(CCNc2ncnc3ccsc23)cc1Cl,Mycobacterium bovis BCG,,luminescence,,MIC50,,>50 µM
Cc1ccn2c(C(=O)NCc3ccc(C4CCN(c5cccc(OC(F)(F)F)c5)CC4)c(F)c3)c(C)nc2c1,Mycobacterium avium,,fluorescence,,inhibition,0.13 µM,85%
FC(F)(F)c1cnc(Oc2ccc(Nc3ncnc4ccccc34)cc2)c(Cl)c1,Mycobacterium bovis BCG,,luminescence,,MIC50,,>50 µM
Cc1nc2cc(Cl)ccn2c1C(=O)NCc1ccc(N2CCC(c3ccc(OC(F)(F)F)cc3)CC2)c(F)c1.Cl,Mycobacterium avium,,fluorescence,,inhibition,0.51 µM,85%
Cc1ccc2nc(Nc3ncnc4ccccc34)sc2c1,Mycobacterium bovis BCG,,luminescence,,MIC50,,>20 µM
Cc1ccn2c(C(=O)NCc3ccc4oc(-c5ccc(OC(F)(F)F)cc5)nc4c3)c(C)nc2c1.Cl,Mycobacterium avium,,fluorescence,,inhibition,0.86 µM,85%
c1ccc2c(NCCN3CCOCC3)ncnc2c1,Mycobacterium bovis BCG,,luminescence,,MIC50,,>20 µM
C[C@@H]1CN(c2c(F)c(N)c3c(=O)c(C(=O)O)cn(C4CC4)c3c2F)C[C@H](C)N1,Mycobacterium avium complex,N-269 (HIV-),,,MIC,,4 µg/mL
Cc1nc(NCCc2ccc(OC(F)(F)F)cc2)c2ccccc2n1,Mycobacterium bovis BCG,,luminescence,,MIC50,,9.5 µM
O=C(NNC(=O)c1ccncc1)Nc1ccc(F)c(Cl)c1,Mycobacterium kansasii,My 6509/96,broth dilution,7 d,MIC100,,>125 µM
COc1ccn2nc(C)c(C(=O)NCc3cc(F)c(N4CCN(c5ccc(OC(F)(F)F)cc5)[C@@H](C)C4)cc3F)c2c1.Cl,Mycobacterium avium,,fluorescence,,inhibition,0.045 µM,85%
CO[C@H]1/C=C/O[C@@]2(C)Oc3c(C)c(O)c4c(O)c(c5c(c4c3C2=O)NC2(CCN(CC(C)C)CC2)N=5)=NC(=O)/C(C)=C\C=C\[C@H](C)[C@H](O)[C@@H](C)[C@@H](O)[C@@H](C)[C@H](OC(C)=O)[C@@H]1C,Mycobacterium avium intracellulare,9-Feb,,,MIC,,1 µg/mL
O=C(NNC(=O)c1ccncc1)Nc1cc(Cl)cc(Cl)c1,Mycobacterium kansasii,My 6509/96,broth dilution,7 d,MIC100,,125 µM
Cc1ccn2c(C(=O)NCc3ccc(N4CCC(c5ccc(OC(F)(F)F)cc5)CC4)cc3F)c(C)nc2c1.Cl,Mycobacterium avium,,fluorescence,,inhibition,0.33 µM,85%
FC(F)(F)c1ccccc1CCNc1ncnc2ccsc12,Mycobacterium bovis BCG,,luminescence,,MIC50,,>50 µM
CO[C@H]1/C=C/O[C@@]2(C)Oc3c(C)c(O)c4c(=O)c(c5oc6cc(N7CCN(CC(C)C)CC7)cc(=O)c6nc5c4c3=C2O)NC(=O)/C(C)=C\C=C\[C@H](C)[C@H](O)[C@@H](C)[C@@H](O)[C@@H](C)[C@H](OC(C)=O)[C@@H]1C,Mycobacterium ulcerans,ATCC 35840,,,MBC,,0.025 µg/mL
FC(F)(F)c1ccc(CCNc2ncnc3sccc23)cc1,Mycobacterium bovis BCG,,luminescence,,MIC50,,>20 µM
CCCC[C@H]1CN(c2ccc(CNC(=O)c3c(CC)nc4cc(F)ccn34)cc2F)CCN1c1ccc(OC(F)(F)F)cc1.Cl,Mycobacterium avium,,fluorescence,,inhibition,0.0044 µM,85%
CC(C)(C)OC(=O)N1CCC2(CC1)CCN(c1ncnc3ccccc13)CC2,Mycobacterium bovis BCG,,luminescence,,MIC50,,>10 µM
Cc1nn2ccc(Br)cc2c1C(=O)NCc1ccc(N2CCN(c3ccc(OC(F)(F)F)cc3)[C@@H](C)C2)c(F)c1.Cl,Mycobacterium avium,,fluorescence,,inhibition,0.066 µM,85%
NNC(=O)c1ccncc1,Mycobacterium avium complex,N-978 (HIV+),,,MIC,,64 µg/mL
COc1ccc(Nc2nnc(-c3ccncc3)o2)cc1,Mycobacterium kansasii,My 6509/96,broth dilution,7 d,MIC100,,>125 µM
CCOc1ccc(N2CCN(c3ccc(CNC(=O)c4c(CC)nc5ccc(Cl)cn45)c(F)c3)C[C@@H]2C)cc1.Cl,Mycobacterium avium,,fluorescence,,inhibition,0.046 µM,85%
CCCCc1ccc(NC(=O)NNC(=O)c2ccncc2)cc1,Mycobacterium kansasii,My 235/80,broth dilution,21 d,MIC100,,125 µM
FC(F)(F)Oc1ccc(CCNc2ncnc3ccoc23)cc1,Mycobacterium bovis BCG,,luminescence,,MIC50,,>20 µM
CO[C@H]1/C=C/O[C@@]2(C)Oc3c(C)c(O)c4c(O)c(c5c(c4c3C2=O)NC2(CCN(CC(C)C)CC2)N=5)=NC(=O)/C(C)=C\C=C\[C@H](C)[C@H](O)[C@@H](C)[C@@H](O)[C@@H](C)[C@H](OC(C)=O)[C@@H]1C,Mycobacterium avium complex,N-319 (HIV-),,,MIC,,0.8 µg/mL
Fc1cc(Nc2nnc(-c3ccncc3)o2)ccc1Br,Mycobacterium kansasii,My 6509/96,broth dilution,21 d,MIC100,,>125 µM
Cc1ccn2c(C(=O)NCc3ccc(N4CCN(C5CN(CC(F)(F)F)C5)[C@@H](C)C4)c(F)c3)c(C)nc2c1,Mycobacterium avium,,fluorescence,,inhibition,0.96 µM,85%
O=C(NNC(=O)c1ccncc1)Nc1ccc(F)c(C(F)(F)F)c1,Mycobacterium kansasii,My 6509/96,broth dilution,7 d,MIC100,,62.5 µM
CO[C@H]1/C=C/O[C@@]2(C)Oc3c(C)c(O)c4c(=O)c(c5oc6cc(N7CCN(CC(C)C)CC7)cc(=O)c6nc5c4c3=C2O)NC(=O)/C(C)=C\C=C\[C@H](C)[C@H](O)[C@@H](C)[C@@H](O)[C@@H](C)[C@H](OC(C)=O)[C@@H]1C,Mycobacterium avium complex,N-962 (HIV+),,,MIC,,0.0625 µg/mL
Fc1cc(Br)ccc1Nc1nnc(-c2ccncc2)o1,Mycobacterium kansasii,My 235/80,broth dilution,7 d,MIC100,,>125 µM
Cc1ccc(Oc2ccc(Nc3ncnc4cc(F)ccc34)cc2)cc1,Mycobacterium bovis BCG,,luminescence,,MIC50,,>20 µM
Clc1ccc(Nc2nnc(-c3ccncc3)o2)cc1Cl,Mycobacterium kansasii,My 235/80,broth dilution,7 d,MIC100,,>125 µM
CC(C)(C)c1ccc(CCOc2ncnc3ccsc23)cc1,Mycobacterium bovis BCG,,luminescence,,MIC50,,>50 µM
CCCCCCCc1ccc(NC(=O)NNC(=O)c2ccncc2)cc1,Mycobacterium kansasii,My 6509/96,broth dilution,14 d,MIC100,,62.5 µM
FS(F)(F)(F)(F)c1ccc(CCNc2ncnc3ccsc23)cc1,Mycobacterium bovis BCG,,luminescence,,MIC50,,>50 µM

2 of the rows above, restated:

| compound | organism | strain | read by | conditions | read-out | dose | value |
|---|---|---|---|---|---|---|---|
| FS(F)(F)(F)(F)c1ccc(CCNc2ncnc3ccsc23)cc1 | Mycobacterium bovis BCG |  | luminescence |  | MIC50 |  | >50 µM |
| CO[C@H]1/C=C/O[C@@]2(C)Oc3c(C)c(O)c4c(=O)c(c5oc6cc(N7CCN(CC(C)C)CC7)cc(=O)c6nc5c4c3=C2O)NC(=O)/C(C)=C\C=C\[C@H](C)[C@H](O)[C@@H](C)[C@@H](O)[C@@H](C)[C@H](OC(C)=O)[C@@H]1C | Mycobacterium ulcerans | ATCC 35840 |  |  | MBC |  | 0.025 µg/mL |